Data: patent US20250009777A1 (priority 2021, published 2025)

Test system: AG129 mouse-adapted DENV2
Type: in vivo, mice
Conditions: three days post infection, 50 and 150 mg/kg groups compared with vehicle, n=5 per group; FIG. 2B

O=c1ccn([C@@H]2O[C@H](CO)[C@@H](O)[C@H]2O)c(=S)[nH]1 [2-thiouridine]
viral RNA level in the serum (log10(number of DENV2 copies)/mL): decreased in a 2-thiouridine dosage-dependent manner
